Reference: paper PMC12426278, “CD147 mediates the adsorption of influenza A virus on the cell surface through direct interaction with HA” (2025)

Target: H9-His (soluble extracellular domain of H9N2 HA) (influenza A virus A/chicken/Zhe Jiang/2023010/2023 (H9N2))
Assay: negative-stain electron microscopy

Question: “H9-His (soluble extracellular domain of H9N2 HA) (domain or fragment)” was tested. Which stoichiometry N did it give?
Answer: Its stoichiometry N is 3.
